Compound potency records, mixed from different reports. Data source: NIAID ChemDB in PubChem.

Common to all: whole-cell or culture tests; agent: Mycobacterium avium intracellulare; read-out: MIC

Conditions beyond the fields shown may differ between rows.

SMILES,strain or isolate,value
NC[C@H]1O[C@H](O[C@H]2[C@H](O)[C@@H](O[C@H]3O[C@H](CO)[C@@H](O)[C@H](N)[C@H]3O)[C@H](N)C[C@@H]2N)[C@H](O)[C@@H](O)[C@@H]1O,CIPT 140310031,5 µg/mL
CC/C=C/CCNC(=O)O[C@H]1C(O[C@@H]2[C@@H](C)[C@H](O[C@H]3C[C@@](C)(OC)[C@@H](OC(C)=O)[C@H](C)O3)[C@@H](C)C(=O)O[C@H](CC)[C@@](C)(O)[C@H](O)[C@@H](C)/C(=N/OCCCC3CCCCC3)[C@H](C)CC2(C)O)O[C@H](C)C[C@@H]1N(C)C,20073,0.1 µg/mL
CC[C@H]1OC(=O)[C@H](C)[C@@H](OC(=O)Cc2ccccn2)[C@H](C)[C@@H](O[C@@H]2O[C@H](C)C[C@H](N(C)C)[C@H]2O)C(C)(O)C[C@@H](C)/C(=N\OCCCOc2ccccc2)[C@H](C)[C@@H](O)[C@]1(C)O,20066 (clarithromycin-susceptible),6.25 µg/mL
CC1(C)S[C@@H]2[C@H](NC(=O)C(C(=O)O)c3ccccc3)C(=O)N2[C@H]1C(=O)O,CIPT 140310001,25 µg/mL
CC[C@H]1OC(=O)[C@H](C)[C@@H](OC2C[C@@](C)(OC)[C@@H](O)[C@H](C)O2)[C@H](C)[C@@H](O[C@@H]2O[C@H](C)C[C@H](N(C)C)[C@H]2O)C(C)(O)C[C@@H](C)/C(=N\OCCCCCc2ccccc2)[C@H](C)[C@@H](O)[C@]1(C)O,20066 (clarithromycin-susceptible),3.13 µg/mL
CO[C@H]1/C=C/O[C@@]2(C)Oc3c(C)c(O)c4c(O)c(c5c(c4c3C2=O)NC2(CCN(CC(C)C)CC2)N=5)=NC(=O)/C(C)=C\C=C\[C@H](C)[C@H](O)[C@@H](C)[C@@H](O)[C@@H](C)[C@H](OC(C)=O)[C@@H]1C,CIPT 140310031,0.1 µg/mL
CCCC(=O)O[C@H]1[C@H](C)OC(O[C@H]2[C@H](C)[C@@H](O[C@@H]3O[C@H](C)C[C@H](N(C)C)[C@H]3O)C(C)(O)C[C@@H](C)/C(=N\OCCCOc3ccccc3)[C@H](C)[C@@H](O)[C@](C)(O)[C@@H](CC)OC(=O)[C@@H]2C)C[C@@]1(C)OC,20066 (clarithromycin-susceptible),0.78 µg/mL
NNC(=O)c1ccncc1,N-809 (HIV-),2 µg/mL
CO[C@H]1/C=C/O[C@@]2(C)Oc3c(C)c(O)c4c(O)c(c5c(c4c3C2=O)NC2(CCN(CC(C)C)CC2)N=5)=NC(=O)/C(C)=C\C=C\[C@H](C)[C@H](O)[C@@H](C)[C@@H](O)[C@@H](C)[C@H](OC(C)=O)[C@@H]1C,SHE,1 µg/mL
CC[C@H]1OC(=O)[C@H](C)[C@@H](OC2C[C@@](C)(OC)[C@@H](O)[C@H](C)O2)[C@H](C)[C@@H](O[C@@H]2O[C@H](C)C[C@H](N(C)C)[C@H]2O)C(C)(O)C[C@@H](C)/C(=N\OCCSc2ccccc2)[C@H](C)[C@@H](O)[C@]1(C)O,20066 (clarithromycin-susceptible),3.13 µg/mL
CCCCCCCCCCCCCCN(C)C(=O)O[C@H]1C(O[C@@H]2[C@@H](C)[C@H](O[C@H]3C[C@@](C)(OC)[C@@H](OC(C)=O)[C@H](C)O3)[C@@H](C)C(=O)O[C@H](CC)[C@@](C)(O)[C@H](O)[C@@H](C)/C(=N/OCCCC3CCCCC3)[C@H](C)CC2(C)O)O[C@H](C)C[C@@H]1N(C)C,20073,0.1 µg/mL
CCC(=O)O[C@H]1[C@H](C)[C@@H](O[C@@H]2O[C@H](C)C[C@H](N(C)C)[C@H]2O)C(C)(O)C[C@@H](C)/C(=N\OCCCOc2ccccc2)[C@H](C)[C@@H](O)[C@](C)(O)[C@@H](CC)OC(=O)[C@@H]1C,20066 (clarithromycin-susceptible),12.5 µg/mL
C[C@@H]1CN(c2c(F)c(N)c3c(=O)c(C(=O)O)cn(C4CC4)c3c2F)C[C@H](C)N1,N-919 (HIV-),0.5 µg/mL
CC[C@H]1OC(=O)[C@H](C)[C@@H](OC2C[C@@](C)(OC)[C@@H](O)[C@H](C)O2)[C@H](C)[C@@H](O[C@@H]2O[C@H](C)C[C@H](N(C)C)[C@H]2O)C(C)(O)C[C@@H](C)/C(=N\OCCN(C)c2ccccc2)[C@H](C)[C@@H](O)[C@]1(C)O,20066 (clarithromycin-susceptible),1.56 µg/mL
CN[C@@H]1[C@H](O[C@H]2[C@H](O[C@H]3[C@H](O)[C@@H](O)[C@H](N=C(N)N)[C@@H](O)[C@@H]3N=C(N)N)O[C@@H](C)[C@]2(O)C=O)O[C@@H](CO)[C@H](O)[C@H]1O,N-919 (HIV-),0.25 µg/mL
CC[C@H]1OC(=O)[C@H](C)[C@@H](O[C@H]2C[C@@](C)(OC)[C@@H](OC(C)=O)[C@H](C)O2)[C@H](C)[C@@H](OC2O[C@H](C)C[C@H](N(C)C)[C@H]2OC(=O)NCC(=O)NC)C(C)(O)C[C@@H](C)/C(=N\OCCCC2CCCCC2)[C@H](C)[C@@H](O)[C@]1(C)O,20067,1.56 µg/mL
CCCO/N=C1\[C@H](C)CC(C)(O)[C@H](O[C@@H]2O[C@H](C)C[C@H](N(C)C)[C@H]2O)[C@@H](C)[C@H](O[C@H]2C[C@@](C)(OC)[C@@H](OC(C)=O)[C@H](C)O2)[C@@H](C)C(=O)O[C@H](CC)[C@@](C)(O)[C@H](O)[C@H]1C,20066 (clarithromycin-susceptible),>50 µg/mL
CCCCNC(=O)O[C@H]1C(O[C@@H]2[C@@H](C)[C@H](O[C@H]3C[C@@](C)(OC)[C@@H](OC(C)=O)[C@H](C)O3)[C@@H](C)C(=O)O[C@H](CC)[C@@](C)(O)[C@H](O)[C@@H](C)/C(=N/OCCCC3CCCCC3)[C@H](C)CC2(C)O)O[C@H](C)C[C@@H]1N(C)C,20073,0.2 µg/mL
CC[C@H]1OC(=O)[C@H](C)[C@@H](O[C@H]2C[C@@](C)(OC)[C@@H](O)[C@H](C)O2)[C@H](C)[C@@H](O[C@@H]2O[C@H](C)C[C@H](N(C)C)[C@H]2O)[C@](C)(OC)C[C@@H](C)C(=O)[C@H](C)[C@@H](O)[C@]1(C)O,N-551 (HIV-),2 µg/mL
Cc1onc(-c2ccccc2Cl)c1C(=O)N[C@@H]1C(=O)N2[C@@H]1SC(C)(C)[C@@H]2C(=O)O,CIPT 140310019,>100 µg/mL
CCCCCCCCNC(=O)O[C@H]1C(O[C@@H]2[C@@H](C)[C@H](O[C@H]3C[C@@](C)(OC)[C@@H](OC(C)=O)[C@H](C)O3)[C@@H](C)C(=O)O[C@H](CC)[C@@](C)(O)[C@H](O)[C@@H](C)/C(=N/OCCCC3CCCCC3)[C@H](C)CC2(C)O)O[C@H](C)C[C@@H]1N(C)C,20067,0.39 µg/mL

The last 2 rows once more:

SMILES | strain or isolate | value
Cc1onc(-c2ccccc2Cl)c1C(=O)N[C@@H]1C(=O)N2[C@@H]1SC(C)(C)[C@@H]2C(=O)O | CIPT 140310019 | >100 µg/mL
CCCCCCCCNC(=O)O[C@H]1C(O[C@@H]2[C@@H](C)[C@H](O[C@H]3C[C@@](C)(OC)[C@@H](OC(C)=O)[C@H](C)O3)[C@@H](C)C(=O)O[C@H](CC)[C@@](C)(O)[C@H](O)[C@@H](C)/C(=N/OCCCC3CCCCC3)[C@H](C)CC2(C)O)O[C@H](C)C[C@@H]1N(C)C | 20067 | 0.39 µg/mL